Assay results from US12497405B2, “Bicyclic heterocycle compounds methods of use thereof for the treatment of herpes viruses” (Merck Sharp & Dohme LLC, priority 2019, dated 2025).

By UniProt entry, the sequences of proteins in these tests, tags left out.
UniProt P08546, whole entry: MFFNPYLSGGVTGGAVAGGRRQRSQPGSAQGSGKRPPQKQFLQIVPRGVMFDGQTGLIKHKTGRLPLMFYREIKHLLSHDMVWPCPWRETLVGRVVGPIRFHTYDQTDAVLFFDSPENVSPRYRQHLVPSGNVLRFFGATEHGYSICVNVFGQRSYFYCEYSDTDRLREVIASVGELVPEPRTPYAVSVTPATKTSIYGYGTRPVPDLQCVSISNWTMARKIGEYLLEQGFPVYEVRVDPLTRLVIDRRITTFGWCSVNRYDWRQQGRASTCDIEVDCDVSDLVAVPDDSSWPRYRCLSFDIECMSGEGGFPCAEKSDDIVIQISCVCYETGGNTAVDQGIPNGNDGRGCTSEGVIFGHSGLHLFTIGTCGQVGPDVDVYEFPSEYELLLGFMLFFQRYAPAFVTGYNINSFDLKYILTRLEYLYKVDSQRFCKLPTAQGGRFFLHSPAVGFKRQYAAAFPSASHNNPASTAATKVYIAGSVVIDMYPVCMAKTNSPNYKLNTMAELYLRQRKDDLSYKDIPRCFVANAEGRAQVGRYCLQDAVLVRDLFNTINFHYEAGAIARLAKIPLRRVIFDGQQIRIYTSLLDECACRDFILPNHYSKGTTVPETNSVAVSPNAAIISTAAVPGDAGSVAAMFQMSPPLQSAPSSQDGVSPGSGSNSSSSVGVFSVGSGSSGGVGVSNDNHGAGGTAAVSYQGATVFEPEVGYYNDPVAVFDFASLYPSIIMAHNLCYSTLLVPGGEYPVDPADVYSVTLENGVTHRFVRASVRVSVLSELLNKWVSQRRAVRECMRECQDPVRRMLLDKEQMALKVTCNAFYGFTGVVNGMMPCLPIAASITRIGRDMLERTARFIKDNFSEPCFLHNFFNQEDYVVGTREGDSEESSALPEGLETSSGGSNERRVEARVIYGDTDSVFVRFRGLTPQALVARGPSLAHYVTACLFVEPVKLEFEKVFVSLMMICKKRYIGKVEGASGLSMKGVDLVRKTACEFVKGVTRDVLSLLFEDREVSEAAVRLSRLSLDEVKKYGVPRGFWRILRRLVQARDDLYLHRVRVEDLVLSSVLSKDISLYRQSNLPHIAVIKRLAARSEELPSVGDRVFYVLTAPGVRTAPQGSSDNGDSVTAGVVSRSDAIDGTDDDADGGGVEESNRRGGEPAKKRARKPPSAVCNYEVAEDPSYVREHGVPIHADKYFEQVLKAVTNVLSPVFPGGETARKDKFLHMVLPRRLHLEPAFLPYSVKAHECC
UniProt P09252, whole entry: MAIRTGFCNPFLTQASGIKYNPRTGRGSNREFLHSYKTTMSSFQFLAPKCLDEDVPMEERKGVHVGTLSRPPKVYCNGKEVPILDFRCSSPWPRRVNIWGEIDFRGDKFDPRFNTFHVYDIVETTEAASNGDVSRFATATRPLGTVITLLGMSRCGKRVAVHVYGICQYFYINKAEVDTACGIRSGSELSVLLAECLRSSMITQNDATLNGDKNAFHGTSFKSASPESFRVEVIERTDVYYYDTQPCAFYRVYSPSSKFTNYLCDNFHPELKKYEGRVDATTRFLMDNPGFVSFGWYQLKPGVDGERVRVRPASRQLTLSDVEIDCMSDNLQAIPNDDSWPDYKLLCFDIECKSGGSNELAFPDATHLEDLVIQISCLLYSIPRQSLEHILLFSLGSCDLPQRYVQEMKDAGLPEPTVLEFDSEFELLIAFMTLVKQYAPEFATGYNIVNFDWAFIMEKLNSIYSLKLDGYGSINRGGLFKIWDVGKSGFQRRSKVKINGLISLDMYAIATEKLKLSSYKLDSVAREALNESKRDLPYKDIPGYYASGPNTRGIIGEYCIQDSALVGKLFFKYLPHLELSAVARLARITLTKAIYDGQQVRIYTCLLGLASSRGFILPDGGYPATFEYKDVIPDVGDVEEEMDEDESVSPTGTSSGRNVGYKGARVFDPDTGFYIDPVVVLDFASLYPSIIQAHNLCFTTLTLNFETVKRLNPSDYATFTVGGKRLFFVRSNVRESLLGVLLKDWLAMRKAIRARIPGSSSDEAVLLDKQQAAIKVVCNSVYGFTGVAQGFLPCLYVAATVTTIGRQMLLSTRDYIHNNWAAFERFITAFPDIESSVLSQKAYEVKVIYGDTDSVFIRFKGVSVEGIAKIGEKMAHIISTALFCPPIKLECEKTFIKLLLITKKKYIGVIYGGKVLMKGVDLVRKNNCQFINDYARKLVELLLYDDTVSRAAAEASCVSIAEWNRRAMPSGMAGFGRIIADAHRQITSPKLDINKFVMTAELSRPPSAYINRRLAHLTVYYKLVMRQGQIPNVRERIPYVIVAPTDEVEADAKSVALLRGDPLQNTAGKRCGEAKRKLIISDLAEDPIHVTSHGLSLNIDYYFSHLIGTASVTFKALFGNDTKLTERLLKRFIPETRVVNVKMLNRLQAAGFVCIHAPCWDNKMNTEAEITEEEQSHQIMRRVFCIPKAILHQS

Key:
[1] = molecular target: Human cytomegalovirus DNA polymerase (Human cytomegalovirus (strain AD169) (HHV-5) (Human herpesvirus 5), UniProt P08546); assay: CMV polymerase assay (AlphaLISA); type: biochemical; conditions: read-out: CMV IC50; HCMV polymerase 0.2 nM, 30 min pre-incubation, 60 minute at 37° C.
Protocol: (§1) Human cytomegalovirus and varicella zoster virus DNA polymerases were expressed via baculovirus vector in SF21 cells and purified. Heterodimeric nucleic acid substrate used in the herpesvirus polymerase reactions were generated by annealing a 59-mer template to a 17-mer digoxigenin-labeled primer. Polymerase (HCMV final concentration of 0.2 nM; VZV final concentration of 0.4 nM) was combined with an inhibitor compound or DMSO in assay buffer (10 mM HEPES, pH 7.5, 25 mM KCl, 25 mM NaCl, 5 mM MgCl2, 5% glycerol, 0.67 mg/ml bovine serum albumin, and 1 mM tris(2-carboxyethyl)phosphine)), and this mixture was pre-incubated for 30 minutes at room temperature in 384-well microtiter plates. The polymerization reaction was initiated by the addition of template/primer substrate (final concentration: 1.6 nM), and dNTPs (final concentration: 24 nM dCTP, 24 nMdGTP, 16 nM dATP, 16 nM dTTP, and 0.8 nM biotin-dUTP). After a 60 minute incubation period at 37° C., the reactions were terminated using quench buffer (25 mM HEPES pH 7.5, 100 mM NaCl, 0.25% Tween-20, 12 mM EDTA, and 1 mg/ml bovine serum albumin). Incorporation of biotinylated UTP was detected with 2.5-5 μg/mL anti-DIG AlphaLISA acceptor beads and 5-10 μg/mL streptavidin AlphaLISA donor beads (PerkinElmer). […]

HSV1 = assay: Viral qPCR assay, HSV1; type: cell-based; conditions: read-out: HSV1 Cell EC50; infected cells, ~72 hrs, viral genome copies by qPCR normalized to PPIA
Protocol: (§2) MRC5 cells, Vero cells, and MeWo cells were obtained from ATCC, and were maintained at 37° C./5% CO2/90% relative humidity in Minimal Essential Medium with 10% fetal bovine serum, […] L-glutamine, 100 units/ml penicillin and 100 ug/ml streptomycin. Assay plates were prepared by dispensing compounds dissolved in DMSO into wells of 384 well collagen-coated plates using an ECHO acoustic dispenser. Each test compound was tested in a 10-point, serial 3-fold dilution. Controls included uninfected cells and infected cells treated only with DMSO. Assays were initiated by mixing selected cells, in suspension, with virus, and dispensing 50 μl/well infected cells to pre-plated compounds. […] Levels of the selected viral gene and of the cellular control, PPIA, were measured in separate 10 μl qPCR assays using TaqMan® Gene Expression Master Mix (Applied Biosystems), and an 7900HT Fast Real-Time PCR System with 384-Well Block Module. 7-point, serial 10-fold dilutions of a plasmid standard were run on each plate to generate a standard curve, and genome copies numbers were calculated by plotting experimental Ct onto linear regression of the standard curve. […] Calculated % effects were fit using a 4-parameter algorithm, and EC50 was reported.

HSV2 = assay: Viral qPCR assay, HSV2; type: cell-based; conditions: read-out: HSV2 Cell EC50; infected cells, ~72 hrs, viral genome copies by qPCR normalized to PPIA
Protocol: as §2

CMV = assay: Viral qPCR assay, CMV; type: cell-based; conditions: read-out: CMV Cell EC50; infected cells, ~72 hrs, viral genome copies by qPCR normalized to PPIA
Protocol: as §2

[2] = molecular target: varicella zoster virus DNA polymerase (Varicella-zoster virus (strain Dumas) (HHV-3) (Human herpesvirus 3), UniProt P09252); assay: VZV polymerase assay (AlphaLISA); type: biochemical; conditions: read-out: VZV IC50; VZV polymerase 0.4 nM, 30 min pre-incubation, 60 minute at 37° C.
Protocol: as §1

**Q.** Which IC50 [1] does the source give for `CCc1nc2cc(-c3cnn(C(F)F)c3)c(O[C@H]3CCN4C(=O)OC[C@@H]4C3)cc2c(=O)n1Cc1ccc(C#N)cc1` here?
**A.** The IC50 was 4 nM.

**Q.** What about the EC50 (HSV1) of the same compound?
**A.** Its EC50 is 53 nM.

**Q.** What about the EC50 (HSV2) of the same compound?
**A.** The EC50 was 50 nM.

**Q.** What about the EC50 (CMV) of the same compound?
**A.** The EC50 was 77 nM.

**Q.** And the IC50 [2]?
**A.** Its IC50 is 1 nM.
